Experimental data as given in the supplement of paper PMC11865577.

How the values were obtained:
Assay in all cases: pull-down binding Z-score (relative to library population); higher = stronger binding
Details in all cases: RNA library: Library-2
[1] = tested on: TO-N3-2 (biotin conjugate)
Method in brief: (§1)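 Binding is given as a Z-score against the library mean and standard deviation, calculated after removing the beads-only signal and averaging barcoded replicate probes without their highest and lowest values. Cy5- or Cy3-end-labelled RNA library (1 μg) was heat-folded in phosphate/NaCl/KCl buffer and incubated 60 min at 25 °C with streptavidin beads bearing 100 pmol of biotin-conjugated small molecule. After three washes, RNA eluted in hot SDS was hybridised to a DNA barcode microarray for 20 h at 55.5 °C.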

[2] = tested on: TO-3-N3-2 (biotin conjugate)
Method in brief: as §1

TO-N3 (biotin conjugate) = tested on: TO-N3 (biotin conjugate)
Method in brief: as §1

[3] = tested on: TO-3-N3 (biotin conjugate)
Method in brief: as §1

| Sequence | pull-down binding Z-score [1] | pull-down binding Z-score [2] | pull-down binding Z-score (TO-N3 (biotin conjugate)) | pull-down binding Z-score [3] |
| --- | --- | --- | --- | --- |
| AGGAUCCGAACCCAGGGGUGGGGGGUGGAGGCGGCUCCUGCGAUCGAAGGGGACUUGAGACUCACCGGCCGCACGCCAUGAGGGCCCUGUGGGUGCUGGGCCU [hsa-mir-3652] | 3.11 | 5.63 | 4.29 | 4.94 |
| AGAGCUAGGUGUUGUACAUAAUCAGGAUGUAAACUUACAUAGCUCU | 0.268 | -0.4 | -0.459 | -0.328 |
| UUUGAUAAAUUCAAA | -1.18 | -0.743 | -1.02 | -0.393 |
| UUUCAAAGAUCAAGUCAUUUUGCUGAAUAAGCAUAUUGACGCAUACAAAACAUUCCCACCAACAGAGCCUAAAAAGGACAAAAAGAAG | -0.0823 | -0.0803 | -0.736 | -0.934 |
| AGCGUACUUCUUUUUCUUGCU [SHAPE_invitro_SARS-CoV-2_Motif_479] | -0.536 | 0.0268 | -0.353 | -0.355 |
| ACUUUAUUAUGAUUCAAUGAGUUAUGAGGAUCAAGAUGCACUUUUCGCAUAUACAAAACGUAAUGUCAUCCCUACUAUAACUCAAAUGAAUCUUAAGU | -0.345 | -0.152 | 0.709 | 0.832 |
| AGGCUAUUUUUGUACUUGUUACUUUGGCCU | -0.711 | -0.154 | -0.731 | -0.625 |
| ACUACUAACAUAGU [DMSMaPseq_invitro_SARS-CoV-2_Motif_126] | -0.996 | -0.202 | -0.341 | 0.121 |
| UUGCAGCAGAAACGCUCAA [DMSMaPseq_invitro_SARS-CoV-2_Motif_298] | 0.236 | -0.0631 | 0.136 | 0.179 |
| AGGCAGAUGGGCUAUAUAAACGUUUUCGCUUUUCCGUUUACGAUAUAUAGUCUACUCUU | -0.414 | -0.148 | -0.6 | -0.726 |
| UUUCUUAGAGACGGUUGGGAAAUUGUUAAAUUUAUCUCAACCUGUGCUUGUGAAA [DMSMaPseq_invitro_SARS-CoV-2_Motif_42] | -0.654 | -0.33 | -0.931 | -0.873 |
| AGAGCAAAAUGUCUGGUAAAGGCCAACAACAACAAGGCCAAACUGUCACUAAGAAAUCUGCUGCUGAGGCUUCUAAGAAGCCUCGGCAAAAACGUACUGCCACU | 0.718 | -0.0489 | -0.139 | -0.669 |
| UUGCCAAAAGGCUUCUACGCAGAAGGGAGCAGAGGCGGCAGUCAAGCCUCUUCUCGUUCCUCAUCACGUAGUCGCAACAGUUCAAGAAAUUCAACUCCAGGCAG | 0.572 | -0.594 | -0.023 | -0.66 |
| ACUACGAAAACAAAUACGUAGU | -0.681 | 0.103 | -0.414 | -0.323 |
| ACUCAAUAUGAGU | -0.711 | 0.00175 | 1.2 | 1.39 |
| AGGGGCAAUUCUCCU [IAV_invivo_PB2_1_Motif_32+IAV_invivo_PB2_1_Motif_32] | -0.344 | -0.195 | -0.149 | 0.0161 |
| UUGGAGGAAUACAAAUCCAA [DMSMaPseq_invitro_SARS-CoV-2_Motif_375] | -0.014 | -0.252 | -0.481 | -0.233 |
| AGAGUUGAAGUUUAAUCCACCUGCUCUACAAGAUGCUUAUUACAGAGCAAGGGCUGGUGAAGCUGCUAACUUU | 0.771 | 0.235 | 0.316 | -0.373 |
| AGCCCGUCUUACACCGUGCGGCACAGGCACUAGUACUGAUGUCGUAUACAGGGCU [SHAPE_invivo_SARS-CoV-2_Motif_256] | 0.548 | -0.55 | -0.605 | -0.797 |
| ACUUUUGAUUCUGAGU | -0.597 | 0.148 | 0.725 | 1.06 |
